# Reference: publication PMC12738692, “Identification, characterization, and structure-activity relationship of the ASIC3-selective peptide WRPRFa” (Communications Chemistry, 2025)
# Biological target: T1, human ASIC3 (acid-sensing ion channel 3) (human) (UniProt Q9UHC3)
# T1 sequence: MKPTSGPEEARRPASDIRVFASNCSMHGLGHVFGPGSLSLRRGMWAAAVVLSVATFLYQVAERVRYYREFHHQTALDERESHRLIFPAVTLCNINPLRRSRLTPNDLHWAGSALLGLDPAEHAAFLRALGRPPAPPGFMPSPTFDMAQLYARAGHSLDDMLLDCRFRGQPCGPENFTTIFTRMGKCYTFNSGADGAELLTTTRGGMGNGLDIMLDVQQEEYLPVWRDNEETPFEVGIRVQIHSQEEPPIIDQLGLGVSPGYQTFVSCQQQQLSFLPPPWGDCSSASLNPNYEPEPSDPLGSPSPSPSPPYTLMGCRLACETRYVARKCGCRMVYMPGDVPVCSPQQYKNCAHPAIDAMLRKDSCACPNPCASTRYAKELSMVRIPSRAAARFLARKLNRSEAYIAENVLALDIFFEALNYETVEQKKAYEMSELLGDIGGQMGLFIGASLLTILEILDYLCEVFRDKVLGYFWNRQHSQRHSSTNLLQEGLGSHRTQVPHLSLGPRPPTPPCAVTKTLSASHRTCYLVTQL
Substance,"I3s/Ipk (geometric mean), 30 µM peptide, pH 6.3, QPatch II","I3s/Ipk (arithmetic mean), 30 µM peptide, pH 6.3, QPatch II"
ARPRFa (peptide),0.251,–
ERPRFa (peptide),–,0.0044
FRPRFa (peptide),0.521,–
HRPRFa (peptide),0.166,–
IRPRFa (peptide),0.362,–
RRPRFa (peptide),0.174,–
VRPRFa (peptide),0.157,–
WAPRFa (peptide),0.0844,–
WDPRFa (peptide),0.0166,–
WEPRFa (peptide),0.0432,–
WIPRFa (peptide),0.4,–
WKPRFa (peptide),0.583,–
WMPRFa (peptide),0.248,–
WRARFa (peptide),0.623,–
WRGRFa (peptide),0.237,–
WRNRFa (peptide),0.395,–
WRPAFa (peptide),0.0154,–
WRPDFa (peptide),0.00475,–
WRPEFa (peptide),0.00363,–
WRPIFa (peptide),0.0958,–
WRPKFa (peptide),0.167,–
WRPNFa (peptide),0.085,–
WRPQFa (peptide),0.0361,–
WRPRAa (peptide),0.201,–
WRPRF-COOH (peptide),0.249,–
WRPRFa (peptide),0.806,–
WRPRHa (peptide),0.149,–

Substance,"I3s/Ipk (geometric mean), 30 µM peptide, pH 6.3, QPatch II","I3s/Ipk (arithmetic mean), 30 µM peptide, pH 6.3, QPatch II"
WRPRIa (peptide),0.619,–
WRPRWa (peptide),0.693,–
WRPRYa (peptide),0.554,–
WRPR{Cha}a (peptide),0.756,–
WRPR{Cpg}a (peptide),0.66,–
WRPR{HomoPhe}a (peptide),0.727,–
WRPR{Phe(F5)}a (peptide),0.742,–
WRPR{Tic}a (peptide),0.421,–
WRP{ADMA}Fa (peptide),0.428,–
WRP{Arg(Me)}Fa (peptide),0.656,–
WRP{Cit}Fa (peptide),0.0228,–
WRP{HomoArg}Fa (peptide),0.744,–
WRP{SDMA}Fa (peptide),0.51,–
WRQRFa (peptide),0.355,–
WRSRFa (peptide),0.633,–
WR{Tic}RFa (peptide),0.595,–
W{Cit}PRFa (peptide),0.18,–
W{HomoArg}PRFa (peptide),0.722,–
YRPRFa (peptide),0.705,–
{Cha}RPRFa (peptide),0.276,–
{Cpa}RPRFa (peptide),0.346,–
{Cpg}RPRFa (peptide),0.35,–
{HomoPhe}RPRFa (peptide),0.451,–
{Phe(4-NH2)}RPRFa (peptide),0.436,–
{Phe(F5)}RPRFa (peptide),0.213,–
{Tic}RPRFa (peptide),0.335,–

# Biological target: T1, human ASIC3 (acid-sensing ion channel 3) (human)
# Remark: another data set of the same source
row,Substance,"I3s/Ipk after 30 µM WRPRFa for 20 s at pH 8.0 (closed state), manual patch clamp"
1,WRPRFa (peptide),0.714

# Biological target: T1, human ASIC3 (acid-sensing ion channel 3) (human)
# Remark: another data set of the same source
row,Substance,"I3s/Ipk after 30 µM WRPRFa for 10 s on desensitized channels, manual patch clamp"
1,WRPRFa (peptide),0.113

# Biological target: T1, human ASIC3 (acid-sensing ion channel 3) (human)
# Remark: another data set of the same source
row,Substance,"I3s/Ipk, 30 µM peptide, pH 6.3, QPatch II"
1,RPRF-COOH (peptide),0.00339
2,RPRF-p-na (peptide),0.387
3,RPRFa (peptide),0.0476

# Biological target: human ASIC3 E416Q (human) (UniProt Q9UHC3)
row,Substance,"EC50 of I3s/Ipk, escalating peptide before pH 6.3, manual patch clamp"
1,WIPRFa (peptide),10.3 µM
2,WRPRFa (peptide),2.47 µM

# Biological target: human ASIC3 E78Q (human) (UniProt Q9UHC3)
row,Substance,"EC50 of I3s/Ipk, escalating peptide before pH 6.3, manual patch clamp"
1,WIPRFa (peptide),1.66 µM
2,WRPRFa (peptide),0.206 µM

# Biological target: human ASIC3 E378Q (human) (UniProt Q9UHC3)
row,Substance,"EC50 of I3s/Ipk, escalating peptide before pH 6.3, manual patch clamp"
1,WIPRFa (peptide),20.8 µM
2,WRPRFa (peptide),9.59 µM

# Biological target: T1, human ASIC3 (acid-sensing ion channel 3) (human)
# Remark: another data set of the same source
Substance,"EC50 of I3s/Ipk, escalating peptide before pH 6.3, QPatch II","EC50 of I3s/Ipk, escalating peptide before pH 6.3, manual patch clamp"
WRPRFa (peptide),6.31 µM,6.22 µM

# Biological target: ASIC131 concatemeric heterotrimer (ASIC1a-ASIC3-ASIC1a in tandem) (human) (UniProt P78348)
row,Substance,"EC50 of I3s/Ipk, escalating WRPRFa before pH 6.3, manual patch clamp, CHO cells"
1,WRPRFa (peptide),> 32.4 µM
